From PubChem BioAssay AID1117319 (Southern Research Institute, 2015)
Records with an inconclusive call do not appear.

Chains of the proteins cited; added tags and fusions are not shown. Lines headed by an entry give the natural chain unless they say otherwise; changes in a name come on top.
UniProt P69720: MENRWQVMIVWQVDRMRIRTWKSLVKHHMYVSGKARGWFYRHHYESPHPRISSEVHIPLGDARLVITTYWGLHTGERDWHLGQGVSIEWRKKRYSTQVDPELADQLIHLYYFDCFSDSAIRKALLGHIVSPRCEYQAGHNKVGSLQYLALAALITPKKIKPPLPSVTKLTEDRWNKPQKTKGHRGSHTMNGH
UniProt P69721: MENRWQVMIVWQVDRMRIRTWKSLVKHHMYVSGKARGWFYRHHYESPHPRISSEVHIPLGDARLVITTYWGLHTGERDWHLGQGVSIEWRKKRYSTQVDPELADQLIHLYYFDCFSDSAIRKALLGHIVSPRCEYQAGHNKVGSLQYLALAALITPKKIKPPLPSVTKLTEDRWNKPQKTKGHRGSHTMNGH
UniProt P69722: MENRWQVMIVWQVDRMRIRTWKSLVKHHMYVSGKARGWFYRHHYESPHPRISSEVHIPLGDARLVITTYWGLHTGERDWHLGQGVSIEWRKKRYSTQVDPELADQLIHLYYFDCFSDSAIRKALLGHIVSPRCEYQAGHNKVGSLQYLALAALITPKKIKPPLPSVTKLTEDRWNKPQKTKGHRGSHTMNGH
UniProt P69723: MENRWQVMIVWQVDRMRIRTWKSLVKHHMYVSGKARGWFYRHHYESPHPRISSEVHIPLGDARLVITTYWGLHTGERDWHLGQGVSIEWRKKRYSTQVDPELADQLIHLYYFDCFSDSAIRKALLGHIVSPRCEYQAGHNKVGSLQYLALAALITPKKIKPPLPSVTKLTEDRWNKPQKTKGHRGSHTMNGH
UniProt Q9HC16: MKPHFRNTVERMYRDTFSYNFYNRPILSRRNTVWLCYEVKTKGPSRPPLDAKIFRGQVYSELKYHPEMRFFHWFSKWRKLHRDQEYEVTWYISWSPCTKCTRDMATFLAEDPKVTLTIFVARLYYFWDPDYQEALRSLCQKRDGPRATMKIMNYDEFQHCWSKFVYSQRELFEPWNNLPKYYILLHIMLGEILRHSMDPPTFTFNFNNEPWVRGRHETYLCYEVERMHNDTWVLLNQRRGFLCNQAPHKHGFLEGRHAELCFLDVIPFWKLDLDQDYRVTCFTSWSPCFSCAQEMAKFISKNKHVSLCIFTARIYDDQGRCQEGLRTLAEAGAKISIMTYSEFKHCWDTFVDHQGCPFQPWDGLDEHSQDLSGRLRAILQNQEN

Biological target: Virion infectivity factor (Human immunodeficiency virus type 1 group M subtype B (isolate BH10)) + Virion infectivity factor (Human immunodeficiency virus type 1 group M subtype B (isolate BRU/LAI)) + Virion infectivity factor (Human immunodeficiency virus type 1 group M subtype B (isolate PCV12)) + Virion infectivity factor (Human immunodeficiency virus type 1 group M subtype B (isolate HXB2)) + DNA dC->dU-editing enzyme APOBEC-3G (Homo sapiens) (UniProt P69720+P69721+P69722+P69723+Q9HC16)
Assay: HIV-1 Vif–A3G interaction blockers – biochemical, TR-FRET, GST-Vif 1-94, biotin-A3G peptide, dose response retest, primary screen (AID 1117319);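 also: Vif residues 1-94 fused to GST binding biotinylated APOBEC3G peptide 110-148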
Settings: TR-FRET GST-Vif / biotin-A3G peptide binding

Oc1ccc(/C=N/NC(=S)Nc2cccnc2)c(O)c1O
IC50: 1.37 µM
